## PSTVd loop 6 mutant pool in Nicotiana benthamiana

PSTVd intermediate strain, loop 6: wild type UGACCGCGAG, pool pattern UNNNCGNNNG; upper and lower strand joined, each 5' to 3', the first 5 letters being the upper strand, closing pairs included.

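A pool of all variants was put on leaves of three Nicotiana benthamiana plants. Progeny were sequenced from the inoculated region (day 5), the margin of the inoculated leaf (day 10) and systemic leaves (day 12).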

Numbers give reads per thousand; 0 = not seen among the reads, higher = more abundant.
Each site shows the three plants.
"Pool" is the share in the plasmid pool used as inoculum, on the same scale.
The inoculated region was read from the minus strand, the other sites from the plus strand.
IR is the inoculated region, LM the leaf margin, Sys the systemic leaves.
The authors trace changes outside the varied positions to PCR and sequencing errors or to mutation in the plant; presence does not show that a variant is infectious alone.
For reference, wild type rose from 20.7 per thousand in the pool to 195, 198, 203 (inoculated region), 629, 591, 734 (leaf margin) and 942, 870, 868 (systemic leaves).
Samples held 36,220 to 57,551 reads, so the smallest values rest on one or two reads.

sequence	pool	IR	LM	Sys
UCUCCGCCCG	0.261	0.104 / 0.108 / 0.129	0 / 0 / 0	0 / 0 / 0
UCUCCGCCGG	0.170	0.104 / 0.0539 / 0.0369	0.0276 / 0 / 0	0 / 0 / 0
UCUCCGCCUG	0.261	0.0521 / 0.162 / 0.0184	0 / 0 / 0	0 / 0 / 0
UCUCCGCGAA	0.0131	0.591 / 0.719 / 0.516	0.138 / 0.0252 / 0	0 / 0 / 0
UCUCCGCGAG	0.131	0.156 / 0.126 / 0.277	0.166 / 0.479 / 0	0.0180 / 0.0202 / 0.0615
UCUCCGCGCG	0.235	0.104 / 0.108 / 0.0738	0.0276 / 0 / 0	0 / 0 / 0
UCUCCGCGGG	0.170	0.0869 / 0.0719 / 0.0922	0 / 0 / 0.0232	0 / 0 / 0
UCUCCGCGUG	0.170	0.104 / 0.126 / 0.0369	0.0276 / 0 / 0	0 / 0 / 0
UCUCCGCUAG	0.183	0.104 / 0.0898 / 0.0738	0.0276 / 0 / 0	0 / 0 / 0
UCUCCGCUCG	0.157	0.104 / 0.108 / 0.0738	0 / 0 / 0.0232	0 / 0 / 0
UCUCCGCUGG	0.118	0.0869 / 0.108 / 0.0738	0 / 0 / 0	0 / 0 / 0
UCUCCGCUUG	0.222	0.0869 / 0.162 / 0.0369	0.0276 / 0 / 0	0 / 0 / 0
UCUCCGGAAG	0.157	0.156 / 0.0898 / 0.0553	0 / 0 / 0	0 / 0 / 0
UCUCCGGACG	0.222	0.122 / 0.0898 / 0.111	0.0552 / 0 / 0	0 / 0 / 0
UCUCCGGAGG	0.118	0.139 / 0.108 / 0.0553	0 / 0 / 0.0464	0 / 0 / 0
UCUCCGGAUG	0.366	0.104 / 0.0719 / 0.111	0.0552 / 0 / 0.0232	0 / 0 / 0
UCUCCGGCAG	0.183	0.139 / 0.108 / 0.0553	0 / 0 / 0	0 / 0 / 0
UCUCCGGCCG	0.183	0.122 / 0.0539 / 0.0184	0 / 0 / 0.0232	0 / 0 / 0
UCUCCGGCGG	0.248	0.0521 / 0.108 / 0.0553	0.0276 / 0 / 0	0 / 0 / 0
UCUCCGGCUG	0.144	0.122 / 0.0180 / 0.0922	0 / 0 / 0	0 / 0 / 0
UCUCCGGGAG	0.144	0.0869 / 0.144 / 0.0369	0.0276 / 0 / 0	0 / 0 / 0
UCUCCGGGCG	0.170	0.139 / 0.0898 / 0.0184	0.0276 / 0 / 0	0 / 0 / 0
UCUCCGGGGG	0.0915	0.122 / 0.0898 / 0.0553	0.0276 / 0 / 0	0 / 0 / 0
UCUCCGGGUG	0.131	0.0869 / 0.144 / 0.0553	0 / 0 / 0	0 / 0 / 0
UCUCCGGUAG	0.235	0.122 / 0.0898 / 0.129	0 / 0 / 0	0 / 0 / 0
UCUCCGGUCG	0.235	0.156 / 0.0898 / 0.0922	0.0552 / 0 / 0.0232	0 / 0 / 0
UCUCCGGUGG	0.144	0.139 / 0.0719 / 0.203	0 / 0.0252 / 0	0 / 0 / 0
UCUCCGGUUG	0.248	0.0695 / 0 / 0.0184	0 / 0 / 0.0232	0 / 0 / 0
UCUCCGUAAG	0.157	0.0521 / 0.0898 / 0.129	0 / 0 / 0.0232	0 / 0 / 0
UCUCCGUACG	0.157	0.0521 / 0.0719 / 0.0369	0 / 0 / 0.0464	0 / 0 / 0
UCUCCGUAGG	0.183	0.104 / 0.0719 / 0.0738	0 / 0 / 0	0 / 0 / 0
UCUCCGUAUG	0.275	0.0521 / 0.0898 / 0.0738	0.193 / 0 / 0	0 / 0 / 0
UCUCCGUCAG	0.222	0.156 / 0.0539 / 0.0922	0.0276 / 0 / 0.0232	0 / 0 / 0
UCUCCGUCCG	0.261	0.0869 / 0.126 / 0.0369	0.0276 / 0 / 0.0232	0 / 0 / 0
UCUCCGUCGG	0.157	0.122 / 0.108 / 0.0553	0 / 0 / 0.0464	0 / 0 / 0
UCUCCGUCUG	0.288	0.0695 / 0.0719 / 0.111	0 / 0 / 0.0232	0 / 0 / 0
UCUCCGUGAG	0.209	0.209 / 0.108 / 0.111	0 / 0 / 0.0464	0 / 0 / 0
UCUCCGUGCG	0.196	0.174 / 0.0719 / 0.0738	0 / 0 / 0	0 / 0 / 0
UCUCCGUGGG	0.170	0.0869 / 0.0359 / 0.111	0.0276 / 0 / 0	0 / 0 / 0
UCUCCGUGUG	0.196	0.0695 / 0.180 / 0.0738	0 / 0 / 0	0 / 0 / 0
UCUCCGUUAG	0.379	0.0869 / 0.0898 / 0.0184	0 / 0 / 0	0 / 0 / 0
UCUCCGUUCG	0.340	0.0869 / 0.126 / 0.0922	0.110 / 0 / 0	0 / 0 / 0
UCUCCGUUGG	0.196	0.122 / 0.0898 / 0.111	0 / 0 / 0	0 / 0 / 0
UCUCCGUUUG	0.235	0.104 / 0.0359 / 0.0184	0 / 0 / 0.0232	0 / 0 / 0
UCUCCUCGAG	0.0131	0 / 0 / 0	0 / 0 / 0	0 / 0 / 0
UCUCUGGGAG	0.0131	0 / 0 / 0	0 / 0 / 0	0 / 0 / 0

A selection of 6 entries from above:

For UCUCCGCGAA (pool 0.0131) the result was IR 0.591 / 0.719 / 0.516; LM 0.138 / 0.0252 / 0; Sys 0 / 0 / 0.
For UCUCCGUUUG (pool 0.235) the result was IR 0.104 / 0.0359 / 0.0184; LM 0 / 0 / 0.0232; Sys 0 / 0 / 0.
For UCUCCGUGGG (pool 0.170) the result was IR 0.0869 / 0.0359 / 0.111; LM 0.0276 / 0 / 0; Sys 0 / 0 / 0.
For UCUCCGCUCG (pool 0.157) the result was IR 0.104 / 0.108 / 0.0738; LM 0 / 0 / 0.0232; Sys 0 / 0 / 0.
For UCUCCGCCCG (pool 0.261) the result was IR 0.104 / 0.108 / 0.129; LM 0 / 0 / 0; Sys 0 / 0 / 0.
For UCUCCGGGCG (pool 0.170) the result was IR 0.139 / 0.0898 / 0.0184; LM 0.0276 / 0 / 0; Sys 0 / 0 / 0.

From the data files of Wu et al. 2024, doi:10.1371/journal.ppat.1012142.